In general, IC50 refers to the point on the concentration scale where inhibition reaches its midpoint.

In article PMC6200136 (Journal of medicinal chemistry, 2017) one finds IC50 data, which are given here for one molecule.

For this experiment, the system named is HEK293T, MM1.S, and MDA-MB-231 cells. Kind of experiment: Cell viability across HEK293T, MM1.S and MDA-MB-231. The conditions noted are these: Homo sapiens, 72 h, read-out: cell viability IC50 values (range over cell lines).

Turning to `CC[C@@H]1C(=O)N(C)c2cnc(Nc3ccc(C(=O)NC4CCN(C)CC4)cc3OC)nc2N1C1CCCC1` [BI-2536], the IC50 lay in the range of 1 to 3.5 nM.
